This is a selection; strong and weak results do not stand in their true shares. The source made the active and inactive calls. Calls follow the shape of the dose curve; as a rule, active = well fitted inhibition curve with a large enough effect; inconclusive = small, poorly fitted or top-dose-only effect; inactive = no such curve, though single readings can be large or run the other way.
% is scaled to controls: 0 for no effect and ±100 for the full control effect.

The test concerns the target Phosphoglycerate kinase, glycosomal (Trypanosoma brucei brucei) (UniProt P07378). As to the kind of experiment: qHTS Assay to Find Inhibitors of Phosphoglycerate Kinase. Also: nearly all actives have a fitted effect of over 60% in size. As to conditions: PGK/GAPDH coupled, Kinase-Glo luminescence, 60 min; activity change, negative = inhibition: at 57.5 µM (top of the series) unless noted. The text has this:
Several species of the Trypanosomatidae family of parasitic protozoans cause a spectrum of diseases throughout the tropical and subtropical world. Sleeping sickness, caused by two subspecies of Trypanosoma brucei, is endemic to areas of sub-Saharan Africa, while Chagas disease, a manifestation of Trypanosoma cruzi infection, is prevalent throughout Central and South America. In addition, many species of Leishmania are responsible for a range of cutaneous and visceral diseases, causing ulcers, destructive lesions and kalaazar, a lethal infection of the viscera. Collectively, these organisms infect 30 million people worldwide (~500 million live in endemic areas), and account for ~130,000 deaths annually. Given their debilitating and prevalent nature, trypanosomatid parasites impose a heavy medical, economic and social burden on entire populations, primarily in the developing world. The problem is further exacerbated by the fact that existing treatments have progressed little in the past 50 years, and current drugs show high toxicity and poor efficacy. […] Blood-stream stages of T. brucei are entirely dependent on glycolysis as a source of ATP, and the tricarboxylic acid cycle and oxidative phosphorylation are both repressed. Glycolysis in axenically cultured T. cruzi, representing the intracellular pathogenic stage, is also essential for these parasites. […] Previous studies have shown that the glycolytic enzyme, phosphoglycerate kinase (PGK), is a viable target for drugs to kill these parasites. […] NIH Molecular Libraries Probe Production Network [MLPCN] NIH Chemical Genomics Center [NCGC] MLPCN Grant: R03 MH093212 PI Name: Malcolm Walkinshaw, University of Edinburgh
3ul of substrate/PGK buffer (columns 1,2,5-48) are dispensed into Greiner white solid bottom 1536-well assay plates; columns 3-4 receive only TEA buffer as 0x PGK controls. Compounds are then transferred via Kalypsys pin tool equipped with 1536-pin array (10nl slotted pins, V&P Scientific, San Diego, CA). Following addition of compound, 1ul of GAPDH (100nM final concentration, all columns) is added to initiate the reaction (this upstream coupling enzyme is necessary for in-well production of PGK substrate, 1,3-bisphosphoglycerate (1,3-BPG), which is unstable and not commercially available). The plates are then incubated at room temperature for 60 minutes. Kinase-Glo Plus reagent is added (2ul) and plates incubated for 10 minutes, before being transferred to a ViewLux high-throughput CCD imager (PerkinElmer) wherein single end-point measurements of luminescence are acquired using a clear filter. All reagents are diluted in an assay buffer consisting of 100mM TEA (pH 7.6), 5mM MgCl2 and 0.01% Tween-20.
For orientation: In qHTS, concentration-response curves come from the screen itself.
Turning to `COc1ccccc1OP(C)(=O)Nc1ccccc1` (stereo unspecified), the activity change, negative = inhibition was inactive: -10.4%.
With `CP(=O)(Nc1ccccc1Br)Oc1ccccc1` (stereo unspecified) the figure was inactive: -2.26%.
Next, `CP(=S)(Nn1cnnc1)Oc1ccccc1` (stereo unspecified): inactive: -0.0935%.
Next, `CP(=O)(Nc1ccccn1)Oc1ccc(Cl)cc1` (stereo unspecified): “inactive”; `CCOP(C)(=S)SCC(=O)NC(C)C(=O)O` (stereo unspecified): inactive: -5.7%; `O=[N+]([O-])c1cc([N+](=O)[O-])c(O)c([N+](=O)[O-])c1.c1ccc(Oc2ccncc2)cc1`: “inactive”.
Turning to `CCOC(=O)c1ccc(NP(C)(=O)Oc2ccc(OC)cc2)cc1` (stereo unspecified), the activity change, negative = inhibition is inactive: 8.26%.
`CCc1ccc(OP(C)(=O)N2CCN(c3ccc([N+](=O)[O-])cc3)CC2)cc1` (stereo unspecified): the activity change, negative = inhibition is inactive: -1.75%.
In the case of `CP(=O)(NC(=O)Nc1ccccc1)Oc1ccccc1` (stereo unspecified), the activity change, negative = inhibition was inactive: -1.64%.
Next, `Cc1cc(C)cc(OP(C)(=O)Nc2ccc(SC(F)(F)F)cc2)c1` (stereo unspecified): inactive: -1.33%; `CP(=O)(Nc1ccc(SC(F)(F)F)cc1)Oc1ccc(Cl)cc1` (stereo unspecified): inactive: -4.38%.
`Cc1cccc(C)c1OP(C)(=O)Nc1ccc(SC(F)(F)F)cc1` (stereo unspecified): the activity change, negative = inhibition result is “inactive”.
`CP(=O)(Oc1ccccc1)OC(c1ccccc1)C(F)(F)F` (stereo unspecified): the activity change, negative = inhibition was inactive: -7.86%.
Turning to `CCN(CC)CCCOC(=O)C(O)(c1ccccc1)c1ccccc1`, the activity change, negative = inhibition was inactive: 1.15%.
Take `COc1ccccc1OP(C)(=O)Nc1cc(Cl)ccc1C` (stereo unspecified): the activity change, negative = inhibition was inactive: -2.17%.
Next, `COc1ccc(OP(C)(=O)Nc2cccc(F)c2)cc1` (stereo unspecified): “inactive”.
With `Cc1cc(C)cc(OP(C)(N)=O)c1` (stereo unspecified) the figure was inactive: -0.793%; with `CCOC(=O)c1ccc(NP(C)(=O)Oc2ccccc2)cc1` (stereo unspecified), inactive: -0.195%; with `COc1ccccc1OP(C)(=O)Nc1ccc(C)cc1` (stereo unspecified), inactive: 2.11%.
Consider `Cc1ccc(NP(C)(=O)Oc2ccccc2)c(C)c1` (stereo unspecified), for which the activity change, negative = inhibition was inactive: 0.597%.
Next, `CC(C)(C)c1ccc(OP(C)(=O)Nc2ccc(SC(F)(F)F)cc2)cc1` (stereo unspecified): inactive: -6.37%.
Take `Cc1cccc(C)c1OP(C)(N)=O` (stereo unspecified): the activity change, negative = inhibition was inactive: 1.85%.
For `O=[N+]([O-])c1ccc2c(c1)C=Nc1ccccc1O2`, the activity change, negative = inhibition is inactive: 0.704%.
On to `O=[N+]([O-])c1cc([N+](=O)[O-])c(Nc2cccnc2)c([N+](=O)[O-])c1`, for which the activity change, negative = inhibition was inactive: -13%.
Next, `CC1=NCCc2c1[nH]c1ccccc21.O=[N+]([O-])c1cc([N+](=O)[O-])c(O)c([N+](=O)[O-])c1`: inactive: -1.35%.
`CP(=O)(Nc1cccc(Br)c1)Oc1ccccc1` (stereo unspecified): the activity change, negative = inhibition result was “inactive”.
With `Cc1cc(C)cc(OP(C)(=O)Nc2ccccn2)c1` (stereo unspecified), the activity change, negative = inhibition was inactive: 9.83%.
With `Cc1ccc(C)c(NP(C)(=O)Oc2ccccc2)c1` (stereo unspecified) the figure was inactive: -4.25%; with `Cc1cc(C)cc(OP(C)(=O)Nc2ccc(C)cc2C)c1` (stereo unspecified), inactive: -1.42%.
With `CCOC(=O)c1ccc(NP(C)(=O)Oc2cc(C)cc(C)c2)cc1` (stereo unspecified) the figure was inactive: -0.428%.
Next, `COc1ccccc1OP(C)(=O)Nc1cccc(Br)c1` (stereo unspecified): inactive: -5.56%; `Cc1nc2ccc3ccccc3c2s1.O=[N+]([O-])c1cc([N+](=O)[O-])c(O)c([N+](=O)[O-])c1`: inactive: 0.623%.
Regarding `O=[N+]([O-])c1cc([N+](=O)[O-])c(-c2cnn(-c3ccccc3)c2)c([N+](=O)[O-])c1`, the activity change, negative = inhibition is inactive: 10.8%.
Next, `O=[N+]([O-])c1cc([N+](=O)[O-])c(-n2nnc3ccccc32)c([N+](=O)[O-])c1`: inactive: -4.22%; `CP(=O)(Nc1ccc(SC(F)(F)F)cc1)Oc1ccccc1` (stereo unspecified): inactive: -3.45%; `CCCOc1ccc(NP(C)(=O)Oc2ccc(Cl)cc2)cc1` (stereo unspecified): inactive: -2.14%.
Next, `CN1CCCCC1COC(=O)C1(O)c2ccccc2CCc2ccccc21` (stereo unspecified): inactive: 3.22%; `COc1ccccc1OP(C)(=O)Nc1c(C)cccc1C` (stereo unspecified): inactive: -13.3%; `O=[N+]([O-])c1cc([N+](=O)[O-])c(Nc2nnnn2CCO)c([N+](=O)[O-])c1`: inactive: -9.61%.
For `CC1=C2N=C(C=C3N=C(C(C)=C4[N-][C@@](C)([C@@H]5N=C1[C@](C)(CCC(=O)NC[C@@H](C)OP(=O)([O-])O[C@H]1[C@@H](O)[C@@H](n6cnc7cc(C)c(C)cc76)O[C@@H]1CO)[C@H]5CC(N)=O)[C@@](C)(CC(N)=O)[C@@H]4CCC(N)=O)[C@@](C)(CC(N)=O)[C@@H]3CCC(N)=O)C(C)(C)[C@@H]2CCC(N)=O.[C-]#N.[Co+3]`, the activity change, negative = inhibition is inactive: -16.6%.
Turning to `Cc1c(C(c2ccc3c(c2)OCO3)c2c(C)n(C)n(-c3ccccc3)c2=O)c(=O)n(-c2ccccc2)n1C.O=[N+]([O-])c1cc([N+](=O)[O-])c(O)c([N+](=O)[O-])c1`, the activity change, negative = inhibition is inactive: -3.57%.
On to `Cc1cc(-c2cccc3ccccc23)c(C)cn1.O=[N+]([O-])c1cc([N+](=O)[O-])c(O)c([N+](=O)[O-])c1`, for which the activity change, negative = inhibition entry was “inactive”.
`O=[N+]([O-])c1ccc(OP2(=O)COCCO2)cc1` (stereo unspecified): the activity change, negative = inhibition was inactive: -8.39%.
With `COc1ccc(NP(C)(=O)Oc2ccccc2OC)cc1` (stereo unspecified) the figure was inactive: -2.96%; with `CN(C)CCOC(=O)C(O)(c1ccccc1)C1CCCCC1` (stereo unspecified), inactive: -2.44%; with `COc1ccc(OP(C)(=O)Nc2cccc(Br)c2)cc1` (stereo unspecified), inactive: -5.5%.
Next, `Cc1ccccc1NP(C)(=O)Nc1ccccc1C`: inactive: 1.76%.
For the compound `CP(=O)(Nc1ccc2c(c1)OCCO2)Oc1ccccc1` (stereo unspecified), the activity change, negative = inhibition entry is “inactive”.
Next, `CCOP(C)(=S)SCC(=O)NC(C)(CC)C(=O)O` (stereo unspecified): “inactive”; `CP(=O)(Nc1ccc(SC(F)(F)F)cc1)Oc1ccc(F)cc1` (stereo unspecified): inactive: -0.606%; `O=C(OCCN1CCN(CCOCc2ccccc2)CC1)C(O)(c1ccccc1)c1ccccc1`: inactive: 5.75%.
With `CC(C)c1ccc(OP(C)(=O)Nc2ccc(SC(F)(F)F)cc2)cc1` (stereo unspecified) the figure was inactive: 6.77%; with `CP(=O)(Nc1ccccc1F)Oc1ccccc1` (stereo unspecified), inactive: -3.86%.
Take `CCCCCOc1ccc(NP(C)(=O)Oc2ccc(Cl)cc2Cl)cc1` (stereo unspecified): the activity change, negative = inhibition was inactive: 3.86%.
Next, `CP(=O)(Nc1ccccc1)Oc1ccc(F)cc1` (stereo unspecified): inactive: -2.5%; `CCN(CC)CCCOC(=O)C(O)(c1ccccc1)C1CCCCC1` (stereo unspecified): inactive: 0.125%.
With `Cc1c([N+](=O)[O-])cc([N+](=O)[O-])c(Br)c1[N+](=O)[O-]`, the activity change, negative = inhibition result was “inactive”.
For `COc1ccc(OP(C)(=O)Nc2ccc(SC(F)(F)F)cc2)cc1` (stereo unspecified), the activity change, negative = inhibition is inactive: 2.26%.
Consider `CCOC(=O)c1ccc(NP(C)(=O)Oc2ccc(F)cc2)cc1` (stereo unspecified), for which the activity change, negative = inhibition is inactive: -4.16%.
Consider `CP(=O)(OCCOc1ccccc1)OCCOc1ccccc1`, for which the activity change, negative = inhibition is inactive: -7.92%.
With `CCCCCCCCCCCCCCCC1C[N+](C)(C)CCOP(C)(=O)O1` (stereo unspecified), the activity change, negative = inhibition is inactive: -8.23%.
With `CP(=O)(Nc1ccc(Cl)cc1Cl)Oc1ccccc1` (stereo unspecified), the activity change, negative = inhibition was inactive: 2.24%.
With `COc1ccc(OP(C)(=O)Nc2ccccc2Br)cc1` (stereo unspecified) the figure was inactive: 5.58%; with `COc1ccccc1OP(C)(=O)Nc1ccc(C)c(C)c1` (stereo unspecified), “inactive”.
Next, `Cc1cc(C)cc(OP(C)(=O)Nc2cccc(C(F)(F)F)c2)c1` (stereo unspecified): inactive: -6.21%; `CCc1ccc(OP(C)(=O)O)cc1`: inactive: -8.25%; `CP(=O)(Nc1ccccn1)Oc1ccccc1` (stereo unspecified): inactive: -2.39%.
Take `COc1ccccc1OP(C)(=O)Nc1ccc(C)cc1C` (stereo unspecified): the activity change, negative = inhibition was inactive: 1.58%.
As for `O=[N+]([O-])c1cc([N+](=O)[O-])c(Nc2ccccn2)c([N+](=O)[O-])c1`, the activity change, negative = inhibition was inactive: -5.62%.
`Cc1c(NP(C)(=O)Oc2ccc(C(C)C)cc2)c(=O)n(-c2ccccc2)n1C` (stereo unspecified): the activity change, negative = inhibition was inactive: 4.42%.
In the case of `CN(C)CCOC(=O)C(O)(c1ccccc1)C1CCCC1` (stereo unspecified), the activity change, negative = inhibition was inactive: -8.05%.
`COc1ccc(OP(C)(=O)Nc2ccccn2)cc1` (stereo unspecified): the activity change, negative = inhibition is inactive: -7.51% [at 11.5 µM].
In the case of `COc1ccccc1OP(C)(=O)Nc1ccc(Br)cc1` (stereo unspecified), the activity change, negative = inhibition was inactive: -7.58%.
Regarding `CN(C)C(=O)c1c([N+](=O)[O-])cc([N+](=O)[O-])cc1[N+](=O)[O-]`, the activity change, negative = inhibition was inactive: -10.8%.
With `CP(=O)(Nc1ccc(Cl)cc1)Oc1ccc(F)cc1` (stereo unspecified) the figure was inactive: 0.946%.
`CC(C)(C)c1ccc(OP(C)(=O)O)cc1`: the activity change, negative = inhibition was inactive: -6.96%.
As to `COc1ccccc1OP(C)(=O)Nc1ccccc1Br` (stereo unspecified), the activity change, negative = inhibition was inactive: -1.85%.
For the compound `CP(=O)(Oc1ccccc1)N1CCOC1=O` (stereo unspecified), the activity change, negative = inhibition was inactive: -3.98%.
As for `CCc1ccc(OP(C)(=O)Nc2cccnc2)cc1` (stereo unspecified), the activity change, negative = inhibition entry was “inactive”.
With `COc1ccccc1OP(C)(=O)Nc1c(C)n(C)n(-c2ccccc2)c1=O` (stereo unspecified) the figure was inactive: -2.65%; with `O=C(OCCCN1CCCC1)C(O)(c1ccccc1)C1CCCCC1` (stereo unspecified), inactive: -3.11%; with `CCN(CC)CC(O)COC(=O)C(O)(c1ccccc1)C1CCCCC1` (stereo unspecified), inactive: -7.14%.
As for `COc1ccc(OP(C)(=O)Nc2ccc(Br)cc2)cc1` (stereo unspecified), the activity change, negative = inhibition is inactive: -1.26%.
`CP(=O)(OC12CC3CC(CC(C3)C1)C2)OC12CC3CC(CC(C3)C1)C2`: the activity change, negative = inhibition is inactive: -2.99%.
Next, `CCOC(=O)c1ccc(NP(C)(=O)Oc2ccc(Cl)cc2)cc1` (stereo unspecified): inactive: -2.18%.
As to `Nc1ccc2c(ccc3cccnc32)n1.O=[N+]([O-])c1cc([N+](=O)[O-])c(O)c([N+](=O)[O-])c1`, the activity change, negative = inhibition is inactive: -6.67%.

The values above are taken from PubChem BioAssay AID602233 (National Center for Advancing Translational Sciences (NCATS), 2012).
